Laboratory results reported in a compilation of properties of binary mixtures (doi:10.1021/acs.jpcc.9b05941).

Assay: xn = mol fraction of the nth substance listed
Conditions: 101 kPa

CC[N+]1(C)CCCC1.O=S(=O)(F)[N-]S(=O)(=O)F + O=S(=O)(F)[N-]S(=O)(=O)F.[Na+]
Conditions | electrical conductivity [S/m] | mass density [kg/m3] | viscosity [mPa·s]
283 K, x2 = 0.3 | 0.076 | 1520 | –
283 K, x2 = 0.4 | 0.036 | 1570 | –
283 K, x2 = 0.5 | 0.014 | 1630 | –
283 K, x2 = 0.6 | 0.004 | 1710 | –
283 K, x2 = 0.7 | 0.001 | 1800 | –
293 K, x2 = 0.5 | 0.033 | 1630 | –
293 K, x2 = 0.6 | 0.01 | 1700 | –
293 K, x2 = 0.7 | 0.004 | 1790 | –
303 K, x2 = 0.3 | 0.233 | 1500 | 150
303 K, x2 = 0.4 | 0.123 | 1550 | 346
303 K, x2 = 0.5 | 0.065 | 1620 | 780
303 K, x2 = 0.6 | 0.024 | 1690 | 2059
303 K, x2 = 0.7 | 0.011 | 1780 | 5800
313 K, x2 = 0.4 | 0.201 | 1540 | 205
313 K, x2 = 0.5 | 0.118 | 1610 | 414
313 K, x2 = 0.6 | 0.05 | 1680 | 960
313 K, x2 = 0.7 | 0.025 | 1770 | 2300
323 K, x2 = 0.3 | 0.501 | 1480 | 66.1
323 K, x2 = 0.4 | 0.308 | 1530 | 130
323 K, x2 = 0.5 | 0.196 | 1600 | 240
323 K, x2 = 0.6 | 0.093 | 1670 | 490
333 K, x2 = 0.4 | 0.446 | 1520 | 85.9
333 K, x2 = 0.5 | 0.306 | 1590 | 153
333 K, x2 = 0.6 | 0.16 | 1660 | 280
333 K, x2 = 0.7 | 0.089 | 1750 | 530
343 K, x2 = 0.4 | 0.62 | 1510 | 59.5
343 K, x2 = 0.6 | 0.253 | 1650 | 171
343 K, x2 = 0.7 | 0.148 | 1740 | 292
353 K, x2 = 0.3 | 1.13 | 1460 | 26.2
353 K, x2 = 0.5 | 0.634 | 1570 | 70.8
353 K, x2 = 0.6 | 0.378 | 1640 | 113
353 K, x2 = 0.7 | 0.229 | 1730 | 175
363 K, x2 = 0.5 | 0.856 | – | 51.7
363 K, x2 = 0.6 | 0.543 | – | 77.7
363 K, x2 = 0.7 | 0.335 | – | 112
373 K, x2 = 0.3 | 1.67 | – | 16.5
373 K, x2 = 0.5 | 1.12 | – | 39.2
373 K, x2 = 0.7 | 0.464 | – | 76.2
383 K, x2 = 0.3 | 2.02 | – | 13.4
383 K, x2 = 0.4 | 1.72 | – | 21.1
383 K, x2 = 0.5 | 1.42 | – | 30.4
383 K, x2 = 0.6 | 0.971 | – | 41.2
383 K, x2 = 0.7 | 0.621 | – | 53
393 K, x2 = 0.3 | 2.37 | – | 11.1
393 K, x2 = 0.4 | 2.04 | – | 17.8
393 K, x2 = 0.5 | 1.75 | – | 23.8
393 K, x2 = 0.6 | 1.25 | – | 31.6
393 K, x2 = 0.7 | 0.8 | – | 37.7
403 K, x2 = 0.3 | – | – | 9.35
403 K, x2 = 0.4 | 2.54 | – | 14.8
403 K, x2 = 0.6 | 1.55 | – | 24.8
